This passage reports inhibition results from PubChem BioAssay AID588549 (Broad Institute, 2011).

The term inhibition denotes the drop in the measured response relative to a control, in per cent.

This is a selection; strong and weak results do not stand in their true shares. Activity calls are given as the source filed them. No stated cut-off is given here; in the data, active means inhibition above about 8.5% (passing the limit was not always enough); inconclusive means no clear call, values can overlap the other calls.

For this test, the system named is Mycobacterium tuberculosis FadD28 fatty-acid-AMP ligase. The experiment in a line: inhibitors of FadD28 bisubstrate probe binding, primary screen, biochemical, fluorescence polarization, single point (AID 588549). Conditions: at 12.5 µM, stronger effect = higher value.
Take `CN(C(=O)Cc1ccccc1)[C@@H]1CC[C@]2(CCCO2)C[C@H]1N1CCCC1`: the inhibition was inactive: -2.69%.
